Publication PMC12578633, “Cross-neutralizing and potent human monoclonal antibodies against historical and emerging H5Nx influenza viruses” (Nature Microbiology, 2025)

B1: 326-289.74 Fab (Fab, V domains shown)
VH: QVQLVQSGAEVKKPGSSVKVSCKASGGTFSIYTFTWVRQAPGHGLEWMGGILPISGSAKYAQKFLGRVTITADESTSTVYMELSSLRSEDTAIYYCARDPYSNYFYGLDVWGQGTTVTVSS
VL: EIVLTQSPVTLSLSPGERATLSCRASQSVSRFLAWYQQKPGQAPRLLFYDASTRATGIPARFSGTGSGTDFTLTISGLEPEDFAVYYCQQRSNWPPEYSFGQGTKLEIK
B2: 326-366.26 Fab (Fab, V domains shown)
VH: QMQLQESGPGLVKPSGTLSLTCAVSGGSISNSHWWSWVRQSPGKGLEWIGEIYHSGSTYYNPSLKSRLTISVDKSKNQFSLKLTSVTAADTAVYFCARGLGWEQGGYRAFDMWGQGTTVTVSS
VL: EIVMTQSPATLSVSPGERVTLSCRASQSVGSSLAWYQQKPGQAPRLLIYAASTRATGIPARFSGSGSGTEFTLTISSLQSEDFAVYYCQQHYNWPPLTFGGGTKVEIK
B3: 310-12D03 Fab (Fab, V domains shown)
VH: QVQLQESGPGLVKPSETLSLTCTVSGDSVSSGDYFWSWIRQPPGKGLEWIGYIFYGGNTKYNPSLKSRVAISVDTSKDQFSLKLTSVTAADTAVYYCATSYITGIQGVDYWGQGTLITVSS
VL: EIVLTQSPGTLSLSPGERATLSCRASQSVSSSFLAWYQQKPGQAPKLLIYGASSRATGIPDRFSGSGSGTDFTLTISRLEPEDFAVYYCQQYGYSLTWTFGQGTKVEIK

What follows are binders tested against H5 A/Texas/37/2024 haemagglutinin ectodomain, soluble trimer (influenza A virus H5N1 A/Texas/37/2024). Settings: both partners purified.
In the case of B1, the Kd is reported as 0.28 nM, the koff is reported as 1.21e-05 s⁻¹ and the kon is reported as 43000 M⁻¹ s⁻¹.
B2 gave a Kd of 0.193 nM, a koff of 2.84e-05 s⁻¹ and a kon of 147000 M⁻¹ s⁻¹.
In the case of B3, the Kd is reported as 5.03 nM, the koff is reported as 0.000285 s⁻¹ and the kon is reported as 56600 M⁻¹ s⁻¹.
